Results of single-concentration screens

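Whole-cell growth test on Mycobacterium tuberculosis, read after 3 days in glucose-containing 7H9 medium; the read-out is not stated. Compounds at 500 µM. Direction is inferred from retests: higher values go with more growth inhibition. About 18,000 compounds were tested under these conditions; 7.9% (about 1,400) showed 50% or more at least once.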

Results are given as percent effect.
The record does not define 0% and 100%; most values in the screen are far below 50% and negative numbers occur (in some assays of this library far below -100).
Many other results are left out here, so strong results are more common than in the screen.

{"compound": "NC1CCCN(CCS(=O)(=O)c2ccc(Br)cc2)C1", "stereo": "configuration not stated", "Percent Effect": 20.09}
{"compound": "Cc1ccc(CCNC(=O)NCc2cnn(C)c2)cn1", "Percent Effect": -2.192}
{"compound": "CN(C)C(=O)c1ccc(Cl)c(S(=O)(=O)N2CCCC2)c1", "Percent Effect": 28.48}
{"compound": "COc1c(C)cc(Br)cc1C(=O)Nc1nnn(C)n1", "Percent Effect": 69.74}
{"compound": "Cc1ccc(-n2nnc(C#N)c2C)cc1", "Percent Effect": -1.566}
{"compound": "Cc1nsc(NC(=O)N2CCC(CN)CC2)n1", "Percent Effect": 10.53}
{"compound": "Nc1nc(NCc2ccncc2)cc(-n2cccn2)n1", "Percent Effect": -8.093}
{"compound": "CC(=O)c1ccc(NC(=O)c2ncoc2C)nc1", "Percent Effect": 8.991}
{"compound": "COc1cccc(CN(C)CC(C)(C)S(C)(=O)=O)c1", "Percent Effect": 49.21}
{"compound": "Cn1ccnc1CCNC(=O)CCN1CCCCC1=O", "Percent Effect": -4.319}
{"compound": "O=S(=O)(c1ccco1)N1CCSC2(CCOCC2)C1", "Percent Effect": 49.28}
{"compound": "CCCN1CCC(NC2CCC3(CC2)OCCO3)CC1", "Percent Effect": -4.535}
{"compound": "O=C(Cc1cccnc1)NCCNc1cccc(Br)c1", "Percent Effect": 61}
{"compound": "CCNc1ncc(C(=O)NCc2ccncc2)cn1", "Percent Effect": 17.85}
{"compound": "CCc1ccc2c(c1)[C@@H](N)CCO2", "Percent Effect": 53.99}
{"compound": "C=C(Br)CNC(=O)c1cccc(CN2CCCC2)c1", "Percent Effect": 0.886}
{"compound": "OCC1(O)CCCN(Cc2nccs2)CC1", "stereo": "configuration not stated", "Percent Effect": 2.985}
{"compound": "CCNC(=O)c1ccc(CNC(C)=O)cc1", "Percent Effect": 0.6495}
{"compound": "CN1CCc2nc(NC(=O)CC(C)(C)C)sc2C1", "Percent Effect": 63.64}
{"compound": "CCN(CC)S(=O)(=O)c1csc(C(N)=O)c1", "Percent Effect": 3}
{"compound": "Cc1ccc(C(=O)CCN2CCOCC2C(N)=O)cc1", "stereo": "configuration not stated", "Percent Effect": -3.874}
{"compound": "CC1C(=O)NCCN1C(=O)c1ccc(F)c(C#N)c1", "stereo": "configuration not stated", "Percent Effect": -8.115}
{"compound": "N#Cc1cc(C#N)c(SCCN2CCCCC2)nc1N", "Percent Effect": 2.575}
{"compound": "NCc1cc(C(N)=O)co1", "Percent Effect": -3.84}
{"compound": "CCNC(=O)C(C)Sc1nc(N)c2ccsc2n1", "stereo": "configuration not stated", "Percent Effect": 32.13}
{"compound": "CSCCc1nc(CC2CCS(=O)(=O)C2)n(CCO)n1", "stereo": "configuration not stated", "Percent Effect": 0.6413}
{"compound": "O=C(NCCn1cccc1)c1[nH]nc2c1CCCC2", "Percent Effect": 42.9}
{"compound": "CCOC1CCN(C(C(N)=O)c2ccccc2)CC1", "stereo": "configuration not stated", "Percent Effect": -0.07924}
{"compound": "COc1c(C)cnc(CSCCN2CCOCC2)c1C", "Percent Effect": 21.66}
{"compound": "NCCSCc1ccccc1F", "Percent Effect": 81.04}
{"compound": "C1CC(OC2CCNCC2)C1", "Percent Effect": 6.115}
{"compound": "Cc1ccccc1C(C)NC(=O)CN1CSCC1=O", "stereo": "configuration not stated", "Percent Effect": 6.122}
{"compound": "CC1(C)CCNCCS1(=O)=O", "Percent Effect": 0.07775}
{"compound": "CCc1ccsc1C(=O)NCC(C)N1CCN(C)CC1", "stereo": "configuration not stated", "Percent Effect": 7.117}
{"compound": "CN(C)c1cccc(C(=O)NCCc2ncnn2C)c1", "Percent Effect": 17.18}
{"compound": "CNCc1nc(-c2ccccc2)c[nH]1", "Percent Effect": 25.79}

For reference, 3 entries once more:

| compound | Percent Effect |
|---|---|
| `Cc1ccc(C(=O)CCN2CCOCC2C(N)=O)cc1` (configuration not stated) | -3.874 |
| `COc1c(C)cnc(CSCCN2CCOCC2)c1C` | 21.66 |
| `NCCSCc1ccccc1F` | 81.04 |

The values are deposited in ChEMBL (CHEMBL3988442, “University of Dundee, Small-Polar-MMV Screening Library” (2021)).